{
  "source": "paper PMC9061721",
  "key": {"[1]": {"target": "SC/09 H1N1 HA protein (A/Sichuan/01/2009) (influenza A virus A/Sichuan/01/2009 (H1N1))", "test": "ELISA"}, "[2]": {"target": "A/Hong Kong/01/1968 (H3N2) HA (influenza A virus A/Hong Kong/01/1968 (H3N2)) (UniProt Q91MA7)", "test": "ELISA"}},
  "data": [
    {"substance": "MEDI8852", "values": [
      {"measurement": "EC50", "setting": "[1]", "result": 0.0648, "unit": "µg/mL"},
      {"measurement": "EC50", "setting": "[2]", "result": 0.0904, "unit": "µg/mL"}
    ]}
  ]
}
